Pooled drug test results. Numbers come from NIAID ChemDB, via PubChem.

Shared fields: target-level tests

Blank or dashed fields: not listed here.

compound | mutations | target | dose | strain | method | read-out | agent | result
O=C(c1ccc([N+](=O)[O-])o1)N1CCN(c2nc3c(F)cc(F)cc3s2)CC1 |  | Thioredoxin reductase |  |  |  | IC50 | Plasmodium falciparum | 5 µM
CCOC(=O)C[C@@H](C1O[C@@H]2OC(C)(C)O[C@@H]2[C@H]1Oc1ccccc1)N(C(=O)NCc1ccccc1)C1CC1 |  | Alpha-glucosidase | 100 µM |  |  | inhibition | Mycobacterium aurum | 40.5%
C/C(=N\NC(=S)NNC(=S)Nc1ccccc1C)c1ccccn1 |  | Ribonucleotide reductase |  |  |  | IC50 | Herpes simplex virus 1 | >5 µM
O=C(O)c1ccc2c(c1)nc(-c1ccc3nc(-c4cc(O)ccc4-c4ccccc4)ccc3c1)n2C1CCCCC1 |  | NS5B polymerase | 33 µM |  |  | inhibition | Hepatitis C virus | 102%
CC(CCN1CCn2cc(-c3nccs3)c(=O)c(O)c2C1=O)c1ccccc1 |  | Integrase |  |  | ELISA | IC50 | HIV-1 | 0.01–0.1 µM
O=C(Nc1cscc1-c1nc(C(=O)O)c(O)c(=O)[nH]1)N[C@H]1c2ccccc2C[C@H]1O |  | HCV polymerase |  |  |  | IC50 | Hepatitis C virus | <25 µM
Nc1nc(=O)c2ncn(CCOCP(=O)(O)O)c2c(=O)[nH]1 |  | NTPase/helicase |  |  | helicase activity | IC50 | West Nile virus | 500 µM
O=S(=O)(c1cccc2cnccc12)N1CCNCC1 |  | Protein kinase C | 0.8 µg/mL |  | nucleotide incorporation | inhibition |  | 13.8%
COc1ccc(-c2cnc(OC)nc2OC)c(-c2ccc3cc(-c4nc5cc(C(=O)O)ccc5n4C4CCCCC4)ccc3n2)c1 |  | NS5B polymerase | 33 µM |  |  | inhibition | Hepatitis C virus | 99.62%
CCN(CC)C(=O)[C@@H]1C=C(C(=O)O)CC[C@H]1NC(C)=O |  | Influenza virus sialidases |  | AICHI N2 | fluorescence | IC50 | Influenza A virus | 0.017 µM
C[C@H]1NCc2cc(-c3c(F)cc4c(=O)c(C(=O)O)cn(C5CC5)c4c3OC(F)F)ccc21 |  | Topoisomerase II |  |  |  | IC50 | Streptococcus pneumoniae | 0.234 µg/mL
OCC1=C[C@H](N[C@H]2[C@@H](O)[C@@H](O)[C@@H](OC3[C@@H](O)[C@@H](O)[C@@H](O[C@H]4[C@@H](O)[C@@H](O)[C@H](O)O[C@@H]4CO)O[C@@H]3CO)O[C@@H]2CO)[C@H](O)[C@H](O)[C@@H]1O |  | Alpha-glucosidase | 50 µM |  |  | inhibition | Mycobacterium aurum | 68%
CC(C)Cn1c(Sc2ccc(C#N)c([N+](=O)[O-])c2)nnc1-c1ccccc1Cl |  | Thioredoxin reductase |  |  |  | IC50 | Plasmodium vivax | 4.7 µM
CC(C)C(=O)N[C@H]1C([C@H](C)[C@@H](O)CO)OC(C(=O)O)=C[C@@H]1NS(=O)(=O)C(Cl)Cl |  | Neuraminidase |  | TYPE 2 |  | IC50 | Parainfluenza virus | 1.9 µM
O=c1ccn2ncn(Cc3cccc(Cl)c3)c(=O)c2c1O |  | Integrase |  |  | ELISA | IC50 | HIV-1 | 0.1–1 µM
NC1CCN(c2ccc3c(=O)c(C(=O)O)cn(C4CC4)c3c2Cl)C1 |  | Topoisomerase II |  |  |  | IC50 | Streptococcus pneumoniae | 8.76 µg/mL
O=C(O)c1ccc(-c2ccc(Cl)cc2)c(-c2ccc3cc(-c4nc5cc(C(=O)O)ccc5n4C4CCCCC4)ccc3n2)c1 |  | NS5B polymerase | 100 µM |  |  | inhibition | Hepatitis C virus | 102%
CCCCCCCCCCCCN(C(=O)Nc1ccc(F)cc1)[C@@H](CC(=O)OCC)C1O[C@@H]2OC(C)(C)O[C@@H]2[C@H]1Oc1ccccc1 |  | Alpha-glucosidase | 100 µM |  |  | inhibition | Mycobacterium aurum | 20.9%
O=C(O)CCc1ccc(O)c(O)c1 |  | CD4 |  |  | flow cytometry | IC50 |  | >20 µM
COc1c(N2C[C@@H]3CCCN[C@@H]3C2)ccc2c(=O)c(C(=O)O)cn(C3CC3)c12 |  | Topoisomerase II |  |  |  | IC50 | Streptococcus pneumoniae | 4.95 µg/mL
O=C1c2c(O)c(=O)c(-c3nccs3)cn2CCN1Cc1cc(Cl)cc(OCc2ccccc2)c1 |  | Integrase |  |  | ELISA | IC50 | HIV-1 | 0.01–0.1 µM
O=C(O)c1ccc(O)c(O)c1 |  | CD4 | 20 µg/mL |  | flow cytometry | inhibition |  | 56%
CCCCCN1CCn2cc(-c3nccs3)c(=O)c(O)c2C1=O |  | Integrase |  |  | ELISA | IC50 | HIV-1 | 0.1–1 µM
C/C(=N\NC(=S)NNC(=S)Nc1cc(Cl)c(Cl)cc1Cl)c1ccccn1 |  | Ribonucleotide reductase |  |  |  | IC50 | Herpes simplex virus 1 | >5 µM
CC1(C)CN(Cc2ccc(F)cc2)C(=O)c2c(O)c(=O)c(Br)cn21 |  | Integrase |  |  | ELISA | IC50 | HIV-1 | 0.1–1 µM
O=C(O)/C=C/c1ccc(O)c(O)c1 |  | CD4 |  |  | flow cytometry | IC50 |  | 4–20 µM
COc1ccc(-c2cncc(N3CCN(c4cccc5[nH]ccc45)CC3)n2)cc1 |  | UL97 kinase |  |  |  | IC50 | Cytomegalovirus | <10 µM
O=c1[nH]c(=O)n([C@@H]2O[C@H](CO)[C@@H](O)[C@@H]2F)cc1/C=C/Br |  | DTHD kinase |  | 333 |  | Ki | Herpes simplex virus 2 | 10.26 µM
O=C(O)c1ccc2c(c1)nc(-c1ccc3nc(-c4ccccn4)ccc3c1)n2C1CCCCC1 |  | NS5B polymerase | 33 µM |  |  | inhibition | Hepatitis C virus | 93.85%
O=c1[nH]c(=O)n([C@H]2C[C@H](O)[C@@H](CO)O2)cc1/C=C/Br |  | DTHD kinase |  | 333 |  | Ki | Herpes simplex virus 2 | 4.24 µM
CC(=O)c1cccc(-c2cncc(N3CCN(c4cccc(C(F)(F)F)c4)CC3)n2)c1 |  | UL97 kinase |  |  |  | IC50 | Cytomegalovirus | <100 µM
CCOC(=O)CCCN(C)c1cc(C#N)cc(C2(C3CCC3)C(C#N)=C(N)Oc3n[nH]c(C)c32)c1 |  | Serine hydroxymethyltransferase |  |  | absorbance | Ki | Plasmodium falciparum | 0.561 µM
CSc1ccc(-c2cncc(N3CCN(c4ccccc4)CC3)n2)cc1 |  | UL97 kinase |  |  |  | IC50 | Cytomegalovirus | <10 µM
Clc1cc(CN2CCCNCCNCCCNCC2)cc(Cl)n1 | CXCR4-D262N | CXCR4 |  |  |  | IC50 |  | 0.57 µM
CCC(CC)O[C@@H]1C=C(C(=O)O)CC[C@H]1NC(C)=O |  | Influenza virus sialidases |  | AICHI N2 | fluorescence | IC50 | Influenza A virus | 0.07 µM
CCOc1cc(-c2ccccc2)nc2ccc(-c3nc4cc(C(=O)O)ccc4n3C3CCCCC3)cc12 |  | NS5B polymerase | 100 µM |  |  | inhibition | Hepatitis C virus | 99.18%
COc1ccc(N2CCN(c3cncc(-c4ccc(CO)cc4)n3)CC2)cc1OC |  | UL97 kinase |  |  |  | IC50 | Cytomegalovirus | <10 µM
CCCCCCCN(C(=O)NCc1ccccc1)[C@@H](CC(=O)OCC)C1O[C@@H]2OC(C)(C)O[C@@H]2[C@H]1OC |  | Alpha-glucosidase | 100 µM |  |  | inhibition | Mycobacterium aurum | 13.7%
Cc1ccc(-c2cncc(NCc3ccco3)n2)cc1C |  | UL97 kinase |  |  |  | IC50 | Cytomegalovirus | <100 µM
O=C(O[C@@H]1O[C@@H]2COC(=O)c3cc4c(O)c(O)c3-c3c(cc(O)c(O)c3O)C(=O)O[C@H]2[C@H](OC(=O)c2cc(O)c(O)c(O)c2)[C@H]1OC(=O)c1cc(O)c(O)c(O)c1Oc1cc2c(c(O)c1O)-c1c(cc(O)c(O)c1O)C(=O)OC[C@H]1OC(O)[C@H](OC(=O)c3cc(O)c(O)c(O)c3O4)[C@@H](OC(=O)c3cc(O)c(O)c(O)c3)[C@@H]1OC2=O)c1cc(O)c(O)c(O)c1 |  | DNA polymerase | 5 µg/mL |  |  | inhibition | Epstein-Barr virus | 47.5%
Cn1cc2c(c(O)c1=O)C(=O)N(Cc1cccc(Cl)c1)CC2 |  | Integrase |  |  | ELISA | IC50 | HIV-1 | 0.01–0.1 µM
CCCCCCCC/C=C\CCCCCCCCN1C(=O)N(c2ccccc2)C(=O)C[C@H]1C1OC2OC(C)(C)OC2[C@H]1OC |  | Alpha-glucosidase | 100 µM |  |  | inhibition | Mycobacterium aurum | 20.2%
CCOC(=O)c1ccc2c(c1)nc(-c1ccc3nc(-c4cc(OC)ccc4-c4ccc(F)cc4)ccc3c1)n2C1CCCCC1 |  | NS5B polymerase | 100 µM |  |  | inhibition | Hepatitis C virus | 82.03%
O=c1[nH]c(=O)n([C@@H]2O[C@H](CO)[C@@H](O)[C@@H]2F)cc1I |  | DTHD kinase |  | 333 |  | Ki | Herpes simplex virus 2 | 1.54 µM
Cc1[nH]nc2c1C(c1cc(Cl)cc(-c3ccc(-c4nn[nH]n4)cc3)c1)(C1CCC1)C(C#N)=C(N)O2 |  | Serine hydroxymethyltransferase |  |  | absorbance | IC50 | Plasmodium falciparum | 0.14 µM
O=C(NCc1cn2ccccc2n1)Nc1cscc1-c1nc(C(=O)O)c(O)c(=O)[nH]1 |  | HCV polymerase |  |  |  | IC50 | Hepatitis C virus | <25 µM
C/C(=N\NC(=S)NNC(=S)Nc1ccc(Cl)c([N+](=O)[O-])c1)c1ccccn1 |  | Ribonucleotide reductase |  |  |  | IC50 | Herpes simplex virus 1 | >5 µM
O=C1C=CC(=C(c2ccc(O)cc2)c2ccc(O)cc2)C=C1 |  | CD4 | 20 µg/mL |  | flow cytometry | inhibition |  | 0%
CO[C@@H]1C2OC(C)(C)OC2OC1[C@@H]1CC(=O)N(Cc2ccccc2)C(=O)N1C1CC1 |  | Alpha-glucosidase | 100 µM |  |  | inhibition | Mycobacterium aurum | 35.2%
Nc1cn2ccn(Cc3cccc(Cl)c3)c(=O)c2c(O)c1=O |  | Integrase |  |  | ELISA | IC50 | HIV-1 | 0.01–0.1 µM
CC(NC(=O)Nc1cscc1-c1nc(C(=O)O)c(O)c(=O)[nH]1)c1cccs1 |  | HCV polymerase |  |  |  | IC50 | Hepatitis C virus | <25 µM
O=C(O)c1cn(C2CC2)c2cc(N3CCNCC3)ccc2c1=O |  | DNA gyrase |  |  |  | IC50 | Streptococcus pneumoniae | 179 µg/mL
O=C(O)Cc1cc(O)ccc1O |  | CD4 | 100 µg/mL |  | flow cytometry | inhibition |  | 29%
Oc1cc(O)c2c(c1)O[C@H](c1cc(O)c(O)c(O)c1)[C@@H](O)C2 |  | DNA polymerase |  |  |  | IC50 | Epstein-Barr virus | 8.1 µg/mL
Cc1cn([C@@H]2O[C@H](CO)[C@@H](O)[C@@H]2O)c(=O)[nH]c1=O |  | DTHD kinase |  | KOS |  | Ki | Herpes simplex virus 1 | 2.99 µM
CS(=O)(=O)Oc1c(=O)c(Br)cn2ccn(Cc3cccc(Cl)c3)c(=O)c12 |  | Integrase |  |  | ELISA | IC50 | HIV-1 | 0.1–1 µM
CC(=O)c1ccccc1-c1cncc(N2CCN(c3cccc(C(F)(F)F)c3)CC2)n1 |  | UL97 kinase | 10 µM |  |  | inhibition | Cytomegalovirus | >15%
Cn1c2ccccc2c(=O)c2c(O)cccc21 |  | Protein kinase C | 100 µg/mL |  | nucleotide incorporation | inhibition |  | 77.8 ± 12%
CC(=O)Nc1ccc(C(=O)O)cc1 |  | DHPS | 1000 µM |  |  | inhibition | Pneumocystis carinii | 80.9%
CC(=O)c1ccc(-c2cncc(N3CCN(c4ccccc4F)CC3)n2)cc1 |  | UL97 kinase | 1 µM |  |  | inhibition | Cytomegalovirus | <50%
CCOC(=O)C[C@H](NC(=O)Nc1ccc(Cl)cc1)C1O[C@@H]2OC(C)(C)O[C@@H]2[C@H]1Oc1ccccc1 |  | Alpha-glucosidase | 100 µM |  |  | inhibition | Mycobacterium aurum | 97.2%
Fc1ccc(-c2cncc(N3CCN(c4ccccc4F)CC3)n2)cc1 |  | UL97 kinase | 1 µM |  |  | inhibition | Cytomegalovirus | <50%
O=C(O)c1ccc2c(c1)nc(-c1ccc3nc(-c4ccc(-c5ccccc5)cc4)ccc3c1)n2C1CCCCC1 |  | NS5B polymerase | 33 µM |  |  | inhibition | Hepatitis C virus | 79.87%
Cc1[nH]nc2c1C(c1cc(Cl)cc(Cl)c1)(C1CC1)C(C#N)=C(N)O2 |  | Serine hydroxymethyltransferase |  |  | absorbance | Ki | Plasmodium falciparum | 0.376 µM
CCOc1ccc(-c2cncc(N3CCN(c4ccccc4)CC3)n2)cc1 |  | UL97 kinase |  |  |  | IC50 | Cytomegalovirus | <10 µM
Cc1ccccc1COC(=O)Nc1ccsc1-c1nc(C(=O)O)c(O)c(=O)[nH]1 |  | HCV polymerase |  |  |  | IC50 | Hepatitis C virus | <25 µM
COc1ccc(-c2ccc(Cl)cc2)c(-c2ccc3cc(-c4nc5cc(C(=O)O)ccc5n4C4CC56CCC5CCC46)ccc3n2)c1 |  | NS5B polymerase | 33 µM |  |  | inhibition | Hepatitis C virus | 101%
C/C(=N\NC(=S)NNC(=S)NC(=O)c1ccccc1)c1ccccn1 |  | Ribonucleotide reductase |  |  |  | IC50 | Herpes simplex virus 1 | >5 µM
O=C(Nc1ccccc1F)Nc1cscc1-c1nc(C(=O)O)c(O)c(=O)[nH]1 |  | HCV polymerase |  |  |  | IC50 | Hepatitis C virus | <25 µM

Conditions beyond the fields shown may differ between rows. Two numbers with a dash give a range or band. Percent inhibition refers to the dose given; in toxicity tests it is the harm to the cells. ICn: concentration for n% inhibition.